{
  "sequences": {"note": "Sequences of proteins named here, by UniProt entry; tags and fusion partners are left off.", "UniProt P22262, whole entry": "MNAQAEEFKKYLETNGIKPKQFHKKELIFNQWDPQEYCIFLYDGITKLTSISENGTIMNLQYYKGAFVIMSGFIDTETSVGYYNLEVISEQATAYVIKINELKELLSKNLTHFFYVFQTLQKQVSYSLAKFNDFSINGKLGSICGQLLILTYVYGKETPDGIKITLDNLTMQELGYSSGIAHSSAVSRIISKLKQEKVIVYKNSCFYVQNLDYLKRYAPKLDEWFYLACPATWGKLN"},
  "source": "paper doi:10.1101/2024.05.24.595734",
  "target": "PrfA (Listeria monocytogenes) (UniProt P22262)",
  "assay": "BLI",
  "conditions": "residues 1-237",
  "note": "No signal at the amounts used counts as a negative. For at least one entry, the source does not settle the construct or the ends of the probe. The comparison behind a weaker result is the experiment's own reference, which may not be listed here. At least one verdict rests on a figure or table, not on a statement of the authors.",
  "data": [
    {"sequence": "TGTCCCTTTATCGTCGTTAACAAATGTTAATGCCTCGACA (double strand) [PplcA/Phly PrfA box DNA]", "values": [
      {"measurement": "binding result", "setting": "5 mM GSH", "value": "binds"},
      {"measurement": "binding result", "setting": "no peptide, no GSH", "value": "binds"},
      {"measurement": "binding result", "setting": "peptide EVFL, PrfA:peptide 1:100", "value": "binds more weakly"},
      {"measurement": "binding result", "setting": "peptide LL, PrfA:peptide 1:100, DNA binding completely blocked", "value": "no binding"},
      {"measurement": "binding result", "setting": "peptide RGLL, PrfA:peptide 1:100", "value": "binds more weakly"},
      {"measurement": "binding result", "setting": "peptide STLL, PrfA:peptide 1:100", "value": "binds more weakly"},
      {"measurement": "binding result", "setting": "peptide TEPL, PrfA:peptide 1:100", "value": "binds more weakly"},
      {"measurement": "binding result", "setting": "peptide TKPR, PrfA:peptide 1:100", "value": "binds more weakly"}
    ]}
  ]
}
